# Source: patent publication US20200170258A1 (SPOGEN BIOTECH, published 2020)
# B1: Ps.tomato FlgII-28 (peptide)
# peptide: ESTNILQRMRELAVQSRNDSNSATDREA
# Target: Flagellin-sensing 3 (FLS3) of tomato (tomato)
# Experiment: cell-based or functional assay
binder,measurement,value
B1,"ROS activity in tomato leaf tissue, Average RLU value, 5 nM Flg polypeptide",1.02e+06 RLU
